Experimental findings from paper PMC6009982, “Diaryl ethers with carboxymethoxyphenacyl motif as potent HIV-1 reverse transcriptase inhibitors with improved solubility” (Journal of Enzyme Inhibition and Medicinal Chemistry, 2017) are described below.

SMILES strings stand for the structures.

One test has as its target HIV-1 RT (Human immunodeficiency virus type 1 group M subtype B, UniProt P04585). Nature of the test: HIV RT inhibitory activity, colorimetric Reverse Transcriptase Assay kit (Roche). To be noted: tested form: K salt; for IC50: HIV-1 RT, 2 ng enzyme, at least two measurements. In kind it is biochemical.
In test [1] the test system is HIV NL4-3-GFP-I in SupT1 cells. Nature of the test: Infection assay in SupT1 cells, GFP flow cytometry. In kind it is cell-based, HIV-1. Conditions: for Antiviral activity: at 10-fold lower concentration than threshold toxic concentration, tested form: K salt. Background: In flow cytometry, cells or beads pass a laser one at a time.
Test [2] concerns HIV NL4-3-GFP-I in CD4+ T cells. Nature of the test: Infection assay in CD4+ T cells, GFP flow cytometry. The class given is cell-based. To be noted: read-out: IC50 (infection rate); primary CD4+ T cells, HIV-1, 72 h; tested form: K salt.

Take `N#Cc1cc(Cl)cc(Oc2cc(OCC(=O)c3ccc(Oc4ccc(OCC(=O)O)cc4)cc3)ccc2Cl)c1`: the 50% inhibitory concentration (IC50) at HIV-1 RT is 360 nM; in test [1] (read-out: IC50 (infection rate), HIV-1, 72 h, tested form: K salt), 250 nM; in test [2], 250 nM. The Antiviral activity result in test [1] was “+”.

Turning to `N#Cc1cc(Cl)cc(Oc2cc(Cl)ccc2OCC(=O)c2ccc(OCC(=O)O)cc2)c1`, the IC50 on HIV-1 RT was 3400 nM. For the same compound, on HIV-1 RT (chlorine moved from position 4 (8a) to 5 (8b)), the “Decrease of IC50 value relative to 8a” value is on record as “about seven-fold decrease”. Further, the Antiviral activity result in test [1] is “–”.

Take `N#Cc1cc(Cl)cc(Oc2ccc(Cl)cc2OCC(=O)c2ccc(Oc3ccc(OCC(=O)O)cc3)cc2)c1`: the IC50 on HIV-1 RT came out at 1900 nM. In test [1], the Antiviral activity result is on record as “+”.

As usually defined, the IC50 is the point on the concentration scale where inhibition reaches its midpoint.
